Test system: SjTGR
Assay: Phage display peptide library biopanning with SjTGR
Format: binding, Schistosoma japonicum
Conditions: 58 clones randomly selected from third round of panning, Ph.D.-12 library, elution with 0.5 mM NADPH

Row | Sequence | Proportion of sequenced phage clones
1 | WPHNWWPHFKVK [JIPDys1, M13 phage clone from Ph.D.-12 library displaying peptide …] | 26 / 58
2 | LHAETRSAMHRT [JIPDys2, M13 phage clone from Ph.D.-12 library displaying peptide …] | 2 / 58
3 | YTMPSLTLYAMG [JIPDys3, M13 phage clone from Ph.D.-12 library displaying peptide …] | 3 / 58
4 | KHMHWHPPALNT [JIPDys4, M13 phage clone from Ph.D.-12 library displaying peptide …] | 4 / 58
